Anti-infective test results gathered from many reports (values: NIAID ChemDB through PubChem).

Common to all: enzyme or target tests; agent: HIV-1; target: Reverse transcriptase; read-out: IC50

Blank or dashed fields: not listed here. ICn is the concentration giving n% inhibition. a–b is a range or a potency band. Conditions beyond the fields shown may differ between rows.

compound	strain	mutations	read by	result
CCN1c2ncc(CCOc3ccc(/C=C(\C)C(=O)O)c4ccccc34)cc2C(=O)Nc2c(C)cc(F)nc21	-	RT-Y188L	nucleotide incorporation / radiometric	>1 µM
Cc1cc(S(N)(=O)=O)ccc1NC(=O)COc1ccc(Cl)cc1C(=O)c1cc(Cl)cc(C#N)c1	-	RT-Y188C	fluorescence	0.0031 µM
CCN1c2ncc(CCOc3ccc(C(=O)O)c4ccccc34)cc2C(=O)Nc2c(C)cc(Cl)nc21	-	RT-V106A	nucleotide incorporation / radiometric	0.1–1 µM
CCN1c2ncc(CSc3ncccn3)cc2C(=O)N(C)c2ccc(Cl)nc21	-	RT-Y181C	nucleotide incorporation / radiometric	<1 µM
C[C@@H](CNC(=S)Nc1nc2ccccc2s1)c1ccccc1	-	-	-	>100 µM
Cc1cc(Br)cc(C)c1-n1nnnc1SCC(=O)Nc1ccccc1Cl	-	-	nucleotide incorporation / radiometric	<2 µM
CCN1c2ncc(COc3cccc(C(=O)O)c3)cc2C(=O)N(C)c2ccc(Cl)nc21	-	RT-Y181C	nucleotide incorporation / radiometric	<1 µM
Cc1cc(C)cc(Cc2cc(=O)[nH]c(OCC(C)C)n2)c1	IIIB	-	nucleotide incorporation	1 µM
CCN1c2ncc(CCc3cccc(F)c3)cc2C(=O)N(C)c2cccnc21	-	RT-Y181C	nucleotide incorporation / radiometric	<1 µM
CCNc1cccnc1N1CCN(C(=O)c2cc3cc4c(cc3[nH]2)OCO4)CC1	IIIB	RT-Y181C	-	>50 µM
CCN1c2ncc(CCOc3ccc(/C(C)=C/C(=O)O)c4ccccc34)cc2C(=O)N(C)c2cccnc21	WT	-	nucleotide incorporation / radiometric	<0.1 µM
Cc1cn([C@@H]2O[C@H](CO[Si](C)(C)C(C)(C)C)C3(OS(=O)(=O)C=C3N)[C@H]2O[Si](C)(C)C(C)(C)C)c(=O)n(C)c1=O	-	RT-E138K	-	>100 µM
Cc1cccc(C)c1-n1nnnc1SCC(=O)Nc1ccccc1[N+](=O)[O-]	-	-	nucleotide incorporation / radiometric	<2 µM
CC(C)=CCN1Cc2cccc3[nH]c(=S)n(c23)C[C@@H]1C	-	RT-E138K	-	0.83 µM
Cc1cccc(NC(=S)NC[C@H](C)c2ccccc2)n1	-	-	-	16.71 µM
Cc1cc(C)c(-n2nnnc2SCC(=O)Nc2cccc3cccnc23)c(C)c1	-	-	nucleotide incorporation / radiometric	<2 µM
CCC(NC(=S)Nc1ccc(Cl)cn1)c1ccccc1	-	-	-	3.4 µM
CCC1(c2ccc(COc3cccnc3)cc2)Oc2ccccc2-n2cccc2C1=O	-	RT-Y181I	nucleotide incorporation / radiometric	40 µM
Cc1c(Sc2ccccc2)n(COCCO)c(=O)[nH]c1=O	-	-	nucleotide incorporation	33 µM
CC(C)=CCOc1cc(NC(=S)c2ccoc2C)ccc1Cl	-	RT-Y181I	-	9.5 µM
COc1nc(Cc2cc(C)cc(C)c2)cc(=O)[nH]1	IIIB	-	nucleotide incorporation	>10 µM
O=C(CSc1nnnn1-c1cccc(Cl)c1)Nc1ccccc1Cl	-	-	nucleotide incorporation / radiometric	<2 µM
C=C(C)CCOCc1ccc(C2(CC)Oc3ccccc3-n3cccc3C2=O)cc1	-	RT-Y181I	nucleotide incorporation / radiometric	>10 µM
CCN1c2ncc(CCOc3ccc(CCC(=O)NN)c4ccccc34)cc2C(=O)N(C)c2cccnc21	-	RT-V106A	nucleotide incorporation / radiometric	>1 µM
CCN1c2ncc(CCc3ccccc3)cc2C(=O)Nc2c1nc(Cl)c(Br)c2C	-	RT-Y181C	nucleotide incorporation / radiometric	<1 µM
Cc1cc(C)cc(Cc2[nH]c(=O)[nH]c(=O)c2C)c1	IIIB	-	nucleotide incorporation	>10 µM
C[C@H](CNC(=S)Nc1ccccn1)C1CCCCC1	-	-	-	>100 µM
CCN1c2ncc(CCOc3ccc(CCC(=O)O)c4ccccc34)cc2C(=O)Nc2c(C)ccnc21	-	RT-Y188L	nucleotide incorporation / radiometric	>1 µM
COc1ccc(Oc2ccc(C(=O)O)cc2NC(=O)Nc2c(C)cccc2C)cc1	-	Wild type	scintillation proximity / radiometric	>5 µM
CCOc1ccccc1N1CCN(C(=O)c2cc3cc4c(cc3[nH]2)OCO4)CC1	IIIB	-	-	1.5 µM
CCC1(c2cccc(COc3ccccc3)c2)Oc2ccccc2-n2cccc2C1=O	-	RT-L100I	nucleotide incorporation / radiometric	1.5 µM
CCN1c2ncc(CCOc3ccc(S(N)(=O)=O)c4ccccc34)cc2C(=O)N(C)c2cccnc21	-	RT-Y188L	nucleotide incorporation / radiometric	0.1–1 µM
C[C@H](CNC(=S)Nc1ccccn1)c1ccccc1	-	-	-	3.5 µM
C=C(CC(=O)O)c1ccc(OCCc2cnc3c(c2)C(=O)N(C)c2cccnc2N3CC)c2ccccc12	-	RT-Y188L	nucleotide incorporation / radiometric	>1 µM
Cc1cc(C)cc(Cc2nc(OCC(C)C)[nH]c(=O)c2C)c1	IIIB	-	nucleotide incorporation	>10 µM
Cc1cc(C)cc(S(=O)(=O)c2c(C(=O)NNCCO)[nH]c3ccc(Cl)cc23)c1	-	RT-V179D	nucleotide incorporation / radiometric	>40 µM
CCN1c2ncc(COc3ccc4[nH]ccc4c3)cc2C(=O)N(C)c2ccc(Cl)nc21	-	RT-Y181C	nucleotide incorporation / radiometric	<1 µM
Cc1cc(C)c(-n2nnnc2SCC(=O)Nc2ccc(C#N)cc2)c(C)c1	-	-	nucleotide incorporation / radiometric	<2 µM
CCN1c2ncc(CSc3ccccc3)cc2C(=O)N(C)c2ccc(Cl)nc21	-	RT-Y181C	nucleotide incorporation / radiometric	<1 µM
Cc1cc(C)c(-n2nnnc2SCC(=O)Nc2ccc(C(N)=O)cc2Cl)c(C)c1	-	-	nucleotide incorporation / radiometric	<2 µM
CCN1c2ncc(CCOc3ccc(CCC(=O)O)c4ccccc34)cc2C(=O)N(C)c2ccc(C)nc21	-	RT-K103N Y181C	nucleotide incorporation / radiometric	0.1–1 µM
CC(C)Nc1cccnc1N1CCN(C(=O)c2cc3cc4c(cc3[nH]2)OCO4)CC1	IIIB	RT-P236L	-	11.1 µM
Cc1cn([C@H]2CC[C@@H](COP(=O)(O)OP(=O)(O)OP(=O)(O)O)O2)c(=O)[nH]c1=O	-	RT-I132M	nucleotide incorporation / radiometric	0.06 µM
COc1ccc(NC(=O)CSc2nnnn2-c2c(C)cc(C)cc2C)c([N+](=O)[O-])c1	-	-	nucleotide incorporation / radiometric	<2 µM
C[C@H](CNC(=S)Nc1ccc(Cl)cn1)C1CCCCC1	-	-	-	>100 µM
Cc1cc(C)cc(Cc2cc(=O)[nH]c(OC(C)C)n2)c1	IIIB	-	nucleotide incorporation	3.2 µM
CCC1(c2ccc(COc3ccccc3)cc2)Oc2ccccc2-n2cccc2C1=O	-	RT-Y181I	nucleotide incorporation / radiometric	0.7 µM
c1ccc(C2SCc3nc4ccccc4n32)cc1	-	RT-Y188L	-	>50 µM
Cc1csc(NC(=S)N[C@H](C)c2cccc3ccccc23)n1	-	-	-	1.17 µM
COc1ccccc1NC(=O)CSc1nnnn1-c1cccc2ccccc12	-	-	nucleotide incorporation / radiometric	<2 µM
C[C@@H](CNC(=S)Nc1ccc(Br)cn1)c1ccccc1	-	-	-	0.42 µM
COc1ccc2c(c1)N(C(=O)OC(C)C)[C@@H](CSC)C(=S)N2	-	RT-K103R V106A Y181I G190E	scintillation proximity / radiometric	>29 µM
CCN1c2ncc(CO)cc2C(=O)N(C)c2ccc(Cl)nc21	WT	-	nucleotide incorporation / radiometric	<1 µM
Cc1cccc2sc(NC(=S)N[C@H](C)c3cccc4ccccc34)nc12	-	-	-	10.2 µM